A mixed list of measured activities; the numbers were collected in NIAID ChemDB.

Shared fields: target-level tests

An empty or dashed field is not shown.

compound | read by | mutations | read-out | tested at | protein | strain or isolate | species | result
O=C(O)Cc1ccc(O)cc1 | - | - | Ki | - | Rv1284 | Rv1284 | Mycobacterium tuberculosis | 11.4 µM
CCOc1ccc2ccccc2c1C(=O)Nc1nnc(NCc2cccs2)s1 | - | - | IC50 | - | Polymerase | - | Human cytomegalovirus | <25 µM
COCON1C(=O)[C@H]([C@H](O)c2ccc(OC)cc2)N(Cc2ccc(OC)cc2)[C@@H](CC(C)C)C1=O | - | - | IC50 | - | Transcriptase | - | Influenza A virus | >200 µM
O=C(O)c1sc(-c2ccccc2)cc1N(C(=O)c1ccc(Cl)cc1Cl)C1CCCC[C@@H]1O | - | - | IC50 | - | NS3 ATPase | - | Hepatitis C virus | <5 µM
O=c1[nH]c(=O)n([C@@H]2O[C@H](CO)[C@@H](O)[C@@H]2O)cc1/C=C/I | - | - | Ki | - | Thymidine kinase | - | Varicella zoster virus | 0.28 µM
CC1(C)N=C(N)N=C(N)N1c1cccc(OCCCOc2cccc([N+](=O)[O-])c2)c1 | - | - | IC50 | - | DHFR | RH | Toxoplasma gondii | 0.033 µM
O=C(Nc1cccc(-c2nc(C(=O)O)c(O)c(=O)[nH]2)c1)NC1CC1c1ccccc1 | - | - | IC50 | - | HCV polymerase | - | Hepatitis C virus | <100 µM
O=c1[nH]c(=O)n([C@@H]2O[C@H](CO)[C@@H](O)[C@@H]2O)cc1/C=C/Br | - | - | Ki | - | Thymidine kinase | - | Varicella zoster virus | 0.25 µM
O=C1N2C3C(=COC=CC3O)CC23SSC12CC1=COC=CC(O)C1N2C3=O | - | - | IC50 | - | RNA polymerase | TYPE A21 | Coxsackie virus | 0.007 µg/mL
COc1cc(OC)c(C=C2SC(=O)N(C)C2=O)c(OC)c1 | fluorescence | - | IC50 | - | Falcipain-2 | - | Plasmodium falciparum | >50 µM
CCc1cn([C@H]2C[C@H](O)[C@@H](CO)O2)c(=O)[nH]c1=O | - | - | Ki | - | Thymidine kinase | - | Varicella zoster virus | 0.47 µM
CC#Cc1cn([C@@H]2O[C@H](CO)[C@@H](O)[C@@H]2O)c(=O)[nH]c1=O | - | - | IC50 | - | DNA polymerase | G-31 | Varicella zoster virus | 0.16 µM
Cc1[nH]c2ccccc2c1CC(=O)Nc1ccsc1-c1nc(C(=O)O)c(O)c(=O)[nH]1 | - | - | IC50 | - | HCV polymerase | - | Hepatitis C virus | <25 µM
Cc1cnc2nc(N)nc(N)c2n1 | - | - | IC50 | - | DHFR | RH | Toxoplasma gondii | >20 µM
O=C(Nc1nnc(NCC2CCCO2)s1)c1cc2ccccc2s1 | - | - | IC50 | - | Polymerase | - | Human cytomegalovirus | >25 µM
Cc1ccc(/C=C/C(=O)N[C@@H](C)c2nc3scc(C)c3c(=O)o2)s1 | - | - | IC50 | - | Protease | - | Cytomegalovirus | 0.53 µM
COc1cc(CN(C)c2ccc3nc(N)nc(N)c3c2Cl)cc(OC)c1OC | - | - | IC50 | - | Dihydrofolate reductase | - | Cryptosporidium parvum | 0.78 µM
Nc1ccc(S(=O)(=O)Nc2nccs2)cc1 | - | - | IC50 | - | DHPS | - | Pneumocystis carinii | <0.05 µM
CC(C)C(N)B(O)O | - | - | IC50 | - | Aminopeptidase | - | Cryptosporidium parvum | <0.001 µM
CCOC(=O)OC1C=COC=C2C[C@@]34SS[C@]5(CC6=COC=CC(OC(=O)OCC)C6N5C3=O)C(=O)N4C21 | - | - | IC50 | - | RNA polymerase | TYPE A21 | Coxsackie virus | 0.08 µg/mL
COc1cc(CNc2ccc3nc(N)nc(N)c3c2Cl)cc(OC)c1OC | - | - | IC50 | - | Dihydrofolate reductase | - | Cryptosporidium parvum | 4.61 µM
Cc1ccccc1S(=O)(=O)Nc1cc(-c2ccncc2)sc1C(=O)O | - | - | IC50 | - | NS3 ATPase | - | Hepatitis C virus | <5 µM
COc1ccc(NS(=O)(=O)c2ccc(N)cc2)nn1 | - | - | Ki | - | DHPS | - | Pneumocystis carinii | 0.0125 µM
CC(C)CC(N)B(O)O | - | - | inhibition | 0.001 µM | Aminopeptidase | - | Cryptosporidium parvum | 78%
CC(C)(C)OC(=O)N1CCc2ccccc2C1CC(=O)Nc1ccsc1-c1nc(C(=O)O)c(O)c(=O)[nH]1 | - | - | IC50 | - | HCV polymerase | - | Hepatitis C virus | <25 µM
CCOC(=O)N1CCC(Nc2nnc(NC(=O)c3c(Cl)cccc3Cl)s2)CC1 | - | - | IC50 | - | Polymerase | - | Human cytomegalovirus | <25 µM
CCCC(O)c1nc(C(=O)O)c(O)c(=O)[nH]1 | - | - | IC50 | - | HCV polymerase | - | Hepatitis C virus | <100 µM
O=c1nc2oc(-c3ccccc3)cc2cn1[C@H]1C[C@H](O)[C@@H](CO)O1 | - | - | IC50 | - | Thymidine kinase | TK+ | Varicella zoster virus | 0.37 µM
Cc1cccc(C=C2SC(=O)N(CC(=O)N3CCN(c4ccccc4)CC3)C2=O)c1 | fluorescence | - | IC50 | - | Falcipain-2 | - | Plasmodium falciparum | 45.33 µM
O=C(Nc1nnc(NC2CCCCCC2)s1)c1ccc2c(c1)C(=O)OC2=O | - | - | IC50 | - | Polymerase | - | Human cytomegalovirus | <25 µM
O=P(O)(O)P(=O)(O)O | - | - | IC50 | - | DNA polymerase | - | Human cytomegalovirus | 150 µM
CC1(C)N=C(N)N=C(N)N1c1cccc(C=C/C=C/c2cccc([N+](=O)[O-])c2)c1 | - | - | IC50 | - | DHFR | RH | Toxoplasma gondii | 0.1 µM
CCc1cn([C@@H]2O[C@H](CO)[C@@H](O)[C@@H]2O)c(=O)[nH]c1=O | - | - | Ki | - | Thymidine kinase | - | Varicella zoster virus | 4.99 µM
Nc1ccc(S(=O)(=O)Nc2ncccn2)cc1 | - | - | IC50 | - | DHPS | - | Pneumocystis carinii | 0.19 µM
CC(=O)OC1C=COC=C2C[C@@]34SC(=S)S[C@]5(CC6=COC=CC(OC(C)=O)C6N5C3=O)C(=O)N4C21 | - | - | IC50 | - | RNA polymerase | TYPE A21 | Coxsackie virus | 18 µg/mL
C#Cc1cn([C@H]2C[C@H](O)[C@@H](CO)O2)c(=O)[nH]c1=O | - | - | Ki | - | Thymidine kinase | - | Varicella zoster virus | 1.56 µM
Cc1cc(SC2=C(O)C[C@@](CCc3ccc(O)cc3)(C(C)C)OC2=O)c(C(C)(C)C)cc1CO | - | - | inhibition | 1 µM | Cytochrome P450 3A4 | - | - | 9%
CC(=O)OC1C=COC=C2C[C@@]34SSSS[C@]5(CC6=COC=CC(OC(C)=O)C6N5C3=O)C(=O)N4C21 | - | - | IC50 | - | RNA polymerase | TYPE A21 | Coxsackie virus | 0.2 µg/mL
Nc1nc(N)c(-c2ccc(Cl)cc2)c(COc2ccc([N+](=O)[O-])cc2)n1 | - | - | IC50 | - | DHFR | RH | Toxoplasma gondii | 1.37 µM
CSS[C@@]12CC3=COC=CC(OC(C)=O)C3N1C(=O)[C@]1(SSC)CC3=COC=CC(OC(C)=O)C3N1C2=O | - | - | IC50 | - | RNA polymerase | TYPE A21 | Coxsackie virus | 0.07 µg/mL
CC(C)(C)OC(=O)N[C@@H](CC(F)F)C(=O)Nc1ccsc1-c1nc(C(=O)O)c(O)c(=O)[nH]1 | - | - | IC50 | - | HCV polymerase | - | Hepatitis C virus | <25 µM
COc1ccc(OC)c(Cc2sc3nc(N)nc(N)c3c2C)c1 | - | - | IC50 | - | Dihydrofolate reductase | - | Cryptosporidium parvum | >10 µM
CC1(C)N=C(N)N=C(N)N1c1cccc(OCCOc2ccc(NC(=O)/C=C/C(=O)O)cc2)c1 | - | - | IC50 | - | DHFR | RH | Toxoplasma gondii | 0.0051 µM
Cc1ccc(-c2cc3cn([C@H]4C[C@H](O)[C@@H](CO)O4)c(=O)nc3o2)cc1 | - | - | IC50 | - | Thymidine kinase | TK+ | Varicella zoster virus | 3.1 µM
CC(C)(C)CNc1nnc(NC(=O)c2c(Cl)cccc2Cl)s1 | - | - | IC50 | - | Polymerase | - | Human cytomegalovirus | >25 µM
O=C(Nc1ccsc1-c1nc(C(=O)O)c(O)c(=O)[nH]1)OCc1ccccc1 | - | - | IC50 | - | HCV polymerase | - | Hepatitis C virus | <25 µM
CC(C)[C@H](NC(=O)c1ccc2ccccc2n1)C(=O)N[C@@H](Cc1ccccc1)[C@H](O)CN1CC[C@@H](SCc2cccnc2)C[C@H]1C(=O)NC(C)(C)C | fluorescence | PR-L23I V32I M46I I47V I54M A71V I84V | Ki | - | Protease | - | HIV | 0.0103 µM
Cc1cc(N(C(=O)c2ccc(Cl)cc2Cl)C(C)C)c(C(=O)O)s1 | - | - | IC50 | - | NS3 ATPase | - | Hepatitis C virus | <5 µM
CCCCC(N)B(O)O | - | - | IC50 | - | Aminopeptidase | - | Cryptosporidium parvum | <0.001 µM
C=CCN(C(=O)CCCC)c1cc(-c2ccccc2)sc1C(=O)O | - | - | IC50 | - | NS3 ATPase | - | Hepatitis C virus | 5–20 µM
Cc1cccc(C)c1OCC(=O)N[C@@H](Cc1ccccc1)[C@H](O)CN1CC[C@@H](Sc2ccncc2)C[C@H]1C(=O)NC(C)(C)C | fluorescence | PR-V32I M46I A71V I84A | fold resistance | - | Protease | - | HIV | 4500
O=C(P(=O)(O)O)P(=O)(O)O | - | - | IC50 | - | DNA polymerase | - | Human cytomegalovirus | 6 µM
CCO[C@@]12CC3=COC=CC(OC(C)=O)C3N1C(=O)[C@]1(S)CC3=COC=CC(OC(C)=O)C3N1C2=O | - | - | IC50 | - | RNA polymerase | TYPE A21 | Coxsackie virus | 5.8 µg/mL
O=C(CN1C(=O)CSC1=O)N1CCN(c2ccccc2)CC1 | fluorescence | - | IC50 | - | Falcipain-2 | - | Plasmodium falciparum | >50 µM
CC(=O)N[C@@H](CO)[C@@H](O)[C@H](O)[C@H](O)COP(=O)(O)O | - | - | inhibition | 76 µM | Phosphoglucose isomerase | - | Candida albicans | 50%
CC#Cc1cn([C@H]2C[C@H](O)[C@@H](CO)O2)c(=O)[nH]c1=O | - | - | Ki | - | Thymidine kinase | - | Varicella zoster virus | 2.3 µM
CC(N)CB(O)O | - | - | inhibition | 0.001 µM | Aminopeptidase | - | Cryptosporidium parvum | 88%
Cc1c(Sc2ccccc2)n(COCCO)c(=O)[nH]c1=O | - | RT-Y188L | fold resistance | - | Reverse transcriptase | - | HIV-1 | >10
O=C1C2CC3=COC=CC(O)C3N2C(=O)C2=CC3=COC=CC(O)C3N12 | - | - | IC50 | - | RNA polymerase | TYPE A21 | Coxsackie virus | 0.00009 µg/mL
COCON1C(=O)[C@H]([C@H](OS(C)(=O)=O)c2ccc(OC)cc2)N(Cc2ccc(OC)cc2)[C@@H](Cc2ccccc2)C1=O | - | - | IC50 | - | Transcriptase | - | Influenza A virus | >200 µM
Nc1nc(N)c2nc(CN3c4ccccc4Cc4ccccc43)cnc2n1 | - | - | IC50 | - | Dihydrofolate reductase | - | Cryptosporidium parvum | >10 µM
O=C(NCc1ccccc1)Nc1cccc(-c2nc(C(=O)O)c(O)c(=O)[nH]2)c1 | - | - | IC50 | - | HCV polymerase | - | Hepatitis C virus | <100 µM
CC1(C)N=C(N)N=C(N)N1c1cccc(CCCCOc2ccccc2)c1 | - | - | IC50 | - | DHFR | RH | Toxoplasma gondii | 0.0046 µM
CCCCCCCCCCc1cc2cn([C@H]3C[C@H](O)[C@@H](CO)O3)c(=O)nc2o1 | - | - | IC50 | - | Thymidine kinase | TK+ | Varicella zoster virus | >200 µM
Cc1cc(NS(=O)(=O)c2ccc(N)cc2)no1 | - | - | IC50 | - | DHPS | - | Pneumocystis carinii | 0.023 µM
COCON1C(=O)/C(=C/c2ccccc2F)N(Cc2ccc(OC)cc2)[C@@H](CC(C)C)C1=O | - | - | IC50 | - | Transcriptase | - | Influenza A virus | >200 µM
CO[P@](=O)(c1cc(C)cc(/C=C/C#N)c1)c1c(C(N)=O)[nH]c2ccc(Cl)cc12 | - | V106M | IC50 | - | Reverse transcriptase | - | HIV | 0.2 µM
COCON1C(=O)/C(=C/C(C)C)N(Cc2ccc(OC)cc2)[C@@H](Cc2ccccc2)C1=O | - | - | IC50 | - | Transcriptase | - | Influenza A virus | >200 µM
COc1ccccc1CNC(=O)Nc1cccc(-c2nc(C(=O)O)c(O)c(=O)[nH]2)c1 | - | - | IC50 | - | HCV polymerase | - | Hepatitis C virus | <100 µM
COCON1C(=O)[C@H]([C@H](O)c2ccccc2F)N(Cc2ccc(OC)cc2)[C@@H](CC(C)C)C1=O | - | - | IC50 | - | Transcriptase | - | Influenza A virus | >200 µM
O=C(Nc1cccc(-c2nc(C(=O)O)c(O)c(=O)[nH]2)c1)Nc1cccc([N+](=O)[O-])c1 | - | - | IC50 | - | HCV polymerase | - | Hepatitis C virus | <100 µM

Repeating the final 8 entries:

{"compound": "CCCCCCCCCCc1cc2cn([C@H]3C[C@H](O)[C@@H](CO)O3)c(=O)nc2o1", "read-out": "IC50", "protein": "Thymidine kinase", "strain or isolate": "TK+", "species": "Varicella zoster virus", "result": ">200 µM"}
{"compound": "Cc1cc(NS(=O)(=O)c2ccc(N)cc2)no1", "read-out": "IC50", "protein": "DHPS", "species": "Pneumocystis carinii", "result": "0.023 µM"}
{"compound": "COCON1C(=O)/C(=C/c2ccccc2F)N(Cc2ccc(OC)cc2)[C@@H](CC(C)C)C1=O", "read-out": "IC50", "protein": "Transcriptase", "species": "Influenza A virus", "result": ">200 µM"}
{"compound": "CO[P@](=O)(c1cc(C)cc(/C=C/C#N)c1)c1c(C(N)=O)[nH]c2ccc(Cl)cc12", "mutations": "V106M", "read-out": "IC50", "protein": "Reverse transcriptase", "species": "HIV", "result": "0.2 µM"}
{"compound": "COCON1C(=O)/C(=C/C(C)C)N(Cc2ccc(OC)cc2)[C@@H](Cc2ccccc2)C1=O", "read-out": "IC50", "protein": "Transcriptase", "species": "Influenza A virus", "result": ">200 µM"}
{"compound": "COc1ccccc1CNC(=O)Nc1cccc(-c2nc(C(=O)O)c(O)c(=O)[nH]2)c1", "read-out": "IC50", "protein": "HCV polymerase", "species": "Hepatitis C virus", "result": "<100 µM"}
{"compound": "COCON1C(=O)[C@H]([C@H](O)c2ccccc2F)N(Cc2ccc(OC)cc2)[C@@H](CC(C)C)C1=O", "read-out": "IC50", "protein": "Transcriptase", "species": "Influenza A virus", "result": ">200 µM"}
{"compound": "O=C(Nc1cccc(-c2nc(C(=O)O)c(O)c(=O)[nH]2)c1)Nc1cccc([N+](=O)[O-])c1", "read-out": "IC50", "protein": "HCV polymerase", "species": "Hepatitis C virus", "result": "<100 µM"}

Fold resistance has wild type as its base. a–b is a range or a potency band. ICn: concentration for n% inhibition. Inhibition is in % at the dose shown (toxicity tests: loss of growth or viability). Rows are shuffled and stem from different studies.